Patent US20230312684A1, “Neuropilin and angiotensin converting enzyme 2 fusion peptides for treating viral infections” (published 2023)

Biological target: RSV-F (amino acids 1-529), (Extracellular Domain) protein (His tag), ABIN2006856 (respiratory syncytial virus) (UniProt P03420)
Assay: ELISA, RSV F coated, anti-human IgG-HRP

| Substance | EC50 |
| --- | --- |
| SEQ ID NO: 208, Nrp1(b1) Nrp2(b2)-Fc (Y297A, S345A, Y353A, no VEGF binding) (Fc fusion) | 1570 nM |
| SEQ ID NO: 193, b1b2-Fc (NRP1, Y297A, S345A, Y353A, no VEGF binding) (Fc fusion) | 749 nM |
